{
  "source": "paper PMC5683647",
  "about": "“Comparison of histone-like HU protein DNA-binding properties and HU/IHF protein sequence alignment”",
  "target": "T1, HU (Neisseria gonorrhoeae) (UniProt Q5F8J6)",
  "T1 sequence (looked up, limits assumed)": "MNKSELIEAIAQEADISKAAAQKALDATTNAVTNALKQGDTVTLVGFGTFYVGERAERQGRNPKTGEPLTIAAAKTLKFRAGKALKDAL",
  "experiment": "EMSA",
  "details": "20 mM Tris-HCl pH 8.0, 7% glycerol, 40 mM NaCl (dsDNA length series, 200 nM DNA, gel 50 mM Tris-borate) or 150 mM NaCl, recombinant protein, protein details: N-terminal 6xHisTEV removed by TEV protease",
  "key": {"[1]": {"details": "150 mM NaCl, label: 5'-HEX on strand 1, folded or branched DNA"}},
  "note": "Where a protein sequence is shown, tags need not be part of it. The exact form of at least one protein or probe is not confirmed. The comparison behind a weaker result is the experiment's own reference, which may not be listed here. At least one verdict rests on a figure or table, not on a statement of the authors.",
  "data": [
    {"sequence": "AGTCTAGAGTGCAGTTGAGTCCT (double strand) [D23 dsDNA]", "values": [
      {"measurement": "binding result", "setting": "40 mM NaCl, label: 5'-HEX", "result": "binds"}
    ]},
    {"sequence": "AGTCTAGAGTGCAGTTGAGTCCTTGCTACGACG (double strand) [D33 dsDNA]", "values": [
      {"measurement": "binding result", "setting": "40 mM NaCl, label: 5'-HEX", "result": "binds"}
    ]},
    {"sequence": "AGTCTAGAGTGCAGTTGAGTCCTTGCTACGACGGATCCCTTAGGTCAG / CTGACCTAAGGGATCCGTCGTAGCAAGAAAGACTCAACTGCACTCTAGACT [bulge A3]", "values": [
      {"measurement": "binding result", "setting": "150 mM NaCl, among lowest affinities, label: 5'-HEX on strand 1, folded or branched DNA", "result": "binds more weakly"}
    ]},
    {"sequence": "AGTCTAGAGTGCAGTTGAGTCCTTGCTACGACGGATCCCTTAGGTCAG (double strand) [D48 dsDNA (ds)]", "values": [
      {"measurement": "binding result", "setting": "40 mM NaCl, 4 complexes, label: 5'-HEX on strand 1", "result": "binds"},
      {"measurement": "binding result", "setting": "150 mM NaCl, smear, label: 5'-HEX on strand 1", "result": "binds more weakly"}
    ]},
    {"sequence": "AGTCTAGAGTGCAGTTGAGTCCTTGCTAC (double strand) [D29 dsDNA]", "values": [
      {"measurement": "binding result", "setting": "40 mM NaCl, label: 5'-HEX", "result": "binds"}
    ]},
    {"sequence": "AGTCTAGAGTGCAGTTGAGTCCTTGCTACGACGGATCCCTTAGGTCAG / ACTCAACTGCACTCTAGACT [overhang (ov)]", "values": [
      {"measurement": "binding result", "setting": "[1]", "result": "binds"}
    ]},
    {"sequence": "GTCTAGAGTGCAGTTGAGTCCTTGCTACGA (double strand) [D31 dsDNA]", "values": [
      {"measurement": "binding result", "setting": "40 mM NaCl, label: 5'-HEX", "result": "binds"}
    ]},
    {"sequence": "AGTCTAGAGTGCAGTTGAGTCCTTGCTACGACGGATCCCTTAGGTCAG / CTGACCTAAGGGATCCGTCGTAGCAAGAAAAAAAGACTCAACTGCACTCTAGACT [bulge A7]", "values": [
      {"measurement": "binding result", "setting": "[1]", "result": "binds"}
    ]},
    {"sequence": "AGTCTAGAGTGCAGTTGAGTCCTTG (double strand) [D25 dsDNA]", "values": [
      {"measurement": "binding result", "setting": "40 mM NaCl, label: 5'-HEX", "result": "binds"}
    ]},
    {"sequence": "AGTCTAGAGTGCAGTTGAGTCCTTGCTACGACGGATCCCTTAGGTCAG / CTGACCTAAGGGATCCGTCGTAGCAAGG / ACTCAACTGCACTCTAGACT [nicked DNA (n)]", "values": [
      {"measurement": "binding result", "setting": "150 mM NaCl, weaker than junction, label: 5'-HEX on strand 1, folded or branched DNA", "result": "binds more weakly"}
    ]}
  ]
}
